# Reference: publication PMC7555970, “Design, Synthesis and Biological Evaluation of Biphenylglyoxamide-Based Small Molecular Antimicrobial Peptide Mimics as Antibacterial Agents” (International Journal of Molecular Sciences, 2020)
# System: MRC-5 normal human lung fibroblasts
# Test: MTT toxicity assay
# Type: cell-based
# Conditions: for Therapeutic Index S. aureus: IC50 value (MRC-5) divided by MIC value against S. aureus; for Therapeutic Index E. coli: IC50 value (MRC-5) divided by MIC value against E. coli; for Therapeutic Index P. aeruginosa: IC50 value (MRC-5) divided by MIC value against P. aeruginosa
# Procedure: The toxicity of the compounds was measured using an MTT (3-(4,5-dimethylthiazol-2-yl)-2,5-diphenyltetrazolium bromide) (Sigma Aldrich, St Louis, MO, USA) colorimetric assay against normal human lung fibroblasts MRC-5 cells. The cells were cultured in minimal essential medium (MEM; Sigma Aldrich, St Louis, MO, USA) containing 10% foetal bovine serum (FBS). The cells were maintained at 37 °C in 5% CO2 as an adherent monolayer and was passaged upon reaching confluence by standard cell culture techniques. MRC-5 cells were seeded at 5000 cells/well in 96-well plates to ensure full confluence (quiescence) and left overnight to adhere to the plate wells. The adherent cells were treated with 1–500 µM of compounds by dissolving in DMSO and serially diluting with media. The final concentration of DMSO was 0.5% (v/v). After 72 h drug incubation, […] stock MTT solution (5 mg/mL) was added and the cells were incubated for another 3.5–4 h. MTT solution-containing media was carefully aspirated without displacing the purple crystals from the bottom and […] acid-isopropanol was added to all wells and mixed slowly by shaking with an orbital shaker to dissolve the dark blue crystals. The metabolic activity was detected by spectrophotometric analysis by assessing the read absorbance (590/620 nm) on an EnSight plate reader (PerkinElmer, Waltham, MA, USA) and cell viability was expressed as a percentage of untreated control cells. The determination of IC50 values was performed using GraphPad Prism 6 (GraphPad, San Diego, CA, USA). Each experiment was performed in triplicate and was repeated in three independent experiments.
Structure (SMILES),Therapeutic Index S. aureus,Therapeutic Index E. coli,Therapeutic Index P. aeruginosa
"CCCCCCCCS(=O)(=O)Nc1ccc(-c2ccccc2)cc1C(=O)C(=O)NCCCN(C)C.Cl [Compound 13a, N,N-Dimethyl-3-(2-(4-(octylsulfonamido)-[1,1’-biphenyl]-3-yl)-2-oxoacetamido)propan-1-aminium chloride]",1.56–2.46 and 1.56,,
"CCCCCCCCS(=O)(=O)Nc1ccc(-c2ccc(Cl)cc2)cc1C(=O)C(=O)NCCCN(C)C.Cl [Compound 13c, 3-(2-(4’-Chloro-4-(octylsulfonamido)-[1,1’-biphenyl]-3-yl)-2-oxoacetamido)-N,N-dimethylpropan-1-aminium chloride]",1.59,,
"CCCCCCCCS(=O)(=O)Nc1ccc(-c2ccc3ccccc3c2)cc1C(=O)C(=O)NCCCN(C)C.Cl [Compound 13d, N,N-Dimethyl-3-(2-(5-(naphthalen-2-yl)-2-(octylsulfonamido)phenyl)-2-oxoacetamido)propan-1-aminium chloride]",1.56–2.46 and 2.46,,
"CCCCCCCCS(=O)(=O)Nc1ccc(CCCC)cc1C(=O)C(=O)NCCCN(C)C.Cl [Compound 13e, 3-(2-(5-Butyl-2-(octylsulfonamido)phenyl)-2-oxoacetamido)-N,N-dimethylpropan-1-aminium chloride]",0.74,,
"CCCCCCCCS(=O)(=O)Nc1ccc(-c2ccccc2)cc1C(=O)C(=O)NCCC[N+](C)(C)C.[I-] [Compound 15a, N,N,N-Trimethyl-3-(2-(4-(octylsulfonamido)-[1,1’-biphenyl]-3-yl)-2-oxoacetamido)propan-1-aminium iodide]",3.17,1.59,0.41
"CCCCCCCCS(=O)(=O)Nc1ccc(-c2ccc(F)cc2)cc1C(=O)C(=O)NCCC[N+](C)(C)C.[I-] [Compound 15b, 3-(2-(4’-Fluoro-4-(octylsulfonamido)-[1,1’-biphenyl]-3-yl)-2-oxoacetamido)-N,N,N-trimethylpropan-1-aminium iodide]",,,3.04
"CCCCCCCCS(=O)(=O)Nc1ccc(-c2ccc(Cl)cc2)cc1C(=O)C(=O)NCCC[N+](C)(C)C.[I-] [Compound 15c, 3-(2-(4’-Chloro-4-(octylsulfonamido)-[1,1’-biphenyl]-3-yl)-2-oxoacetamido)-N,N,N-trimethylpropan-1-aminium iodide]",,,1.53
"CCCCCCCCS(=O)(=O)Nc1ccc(-c2ccc3ccccc3c2)cc1C(=O)C(=O)NCCC[N+](C)(C)C.[I-] [Compound 15d, N,N,N-Trimethyl-3-(2-(5-(naphthalen-2-yl)-2-(octylsulfonamido)phenyl)-2-oxoacetamido)propan-1-aminium iodide]",,1.79,0.45
"CCCCCCCCS(=O)(=O)Nc1ccc(CCCC)cc1C(=O)C(=O)NCCC[N+](C)(C)C.[I-] [Compound 15e, 3-(2-(5-Butyl-2-(octylsulfonamido)phenyl)-2-oxoacetamido)-N,N,N-trimethylpropan-1-aminium iodide]",6.31,,
"CCCCCCCCS(=O)(=O)Nc1ccc(-c2ccccc2)cc1C(=O)C(=O)NCCCNC(=N)N.Cl [Compound 22a, N-(3-Guanidinopropyl)-2-(4-(octylsulfonamido)-[1,1’-biphenyl]-3-yl)-2-oxoacetamide hydrochloride]",,1.21,1.21
"CCCCCCCCS(=O)(=O)Nc1ccc(-c2ccc(F)cc2)cc1C(=O)C(=O)NCCCNC(=N)N.Cl [Compound 22b, 2-(4’-Fluoro-4-(octylsulfonamido)-[1,1’-biphenyl]-3-yl)-N-(3-guanidinopropyl)-2-oxoacetamide hydrochloride]",,4.75,1.21
"CCCCCCCCS(=O)(=O)Nc1ccc(-c2ccc(Cl)cc2)cc1C(=O)C(=O)NCCCNC(=N)N.Cl [Compound 22c, 2-(4’-Chloro-4-(octylsulfonamido)-[1,1’-biphenyl]-3-yl)-N-(3-guanidinopropyl)-2-oxoacetamide hydrochloride]",,1.52,0.38
"CCCCCCCCS(=O)(=O)Nc1ccc(-c2ccc3ccccc3c2)cc1C(=O)C(=O)NCCCNC(=N)N.Cl [Compound 22d, N-(3-Guanidinopropyl)-2-(5-(naphthalen-2-yl)-2-(octylsulfonamido)phenyl)-2-oxoacetamide hydrochloride]",6.19,,

# Several values for one entry are separate records, joined by “and”; a condition that tells them apart may be missing. Equal entries are not always repeated.
